The subject of the data set is HCMV protease. Briefly: Size exclusion chromatography, monomer-dimer equilibrium. It is filed as binding, human cytomegalovirus. A general note: Size exclusion chromatography separates by hydrodynamic size, large species first.

With “HCMV protease: N-terminal 256 amino acid protease domain of HCMV strain AD169, recombinantly expressed in E. coli”, the “maximum fraction of dimeric protease (extrapolated from fit, FIG. 2)” value (20% glycerol, 30° C.) was 0.92. For the same substance, for the setting “loading concentration of 100 mM, separate experiments”, the “maximum fraction of dimeric protease” value is listed as at least 0.95.

The record behind these values is patent US5891661A, “Low temperature assay for active HCMV protease in dimeric form” (Merck & Co., Inc., priority 1997, dated 1999).
